# Experimental data reported in publication PMC12245108 (Advanced Science, 2025).
# Molecular target: MPXV I7L protease (Monkeypox virus, UniProt Q8V512)
# Test: FRET-based protease assay (N-tagged MPXV I7L protease)
# Format: biochemical
structure (smiles),measurement,setting,value
CCOC(=O)[C@H]1O[C@@H]1C(=O)N[C@@H](CC(C)C)C(=O)NCCC(C)C,IC50,"FRET-based protease assay, N-tagged protease",9.1 µM
same,inhibition rate,"compound at 100 µM, 200 nM N-tagged protease, 5 µM substrate, 75 mM NaCl, 50% glycerol, pH 7.5",102.5%
